Measured values taken from PMC4033508.

Test system: O=C(O)CC(=O)C(=O)O
Test: purified protein
Settings: pH 6.0; 40.0 °C

Substance “His-MDH (B. abortus malate dehydrogenase) (Brucella abortus 2308)” has a Km of 6.45 mM.
